Pooled drug test results. Numbers come from NIAID ChemDB, via PubChem.

Common to all: cytotoxicity tests; cells: MT-4; read-out: CC50

CCn is the concentration with n% toxicity to the cells. Rows are shuffled and stem from different studies. An empty or dashed field is not shown.

SMILES,method,result
CC(C)=NOC(=O)OC[C@H]1O[C@@H](n2cc(C)c(=O)[nH]c2=O)C[C@@H]1N=[N+]=[N-],MTT,182 µM
C[C@H](CCC(=O)O)[C@H]1CC[C@H]2[C@@H]3[C@H](OS(=O)(=O)O)C[C@@H]4C[C@H](OS(=O)(=O)O)CC[C@]4(C)[C@H]3C[C@H](OS(=O)(=O)O)[C@]12C,,>500 µg/mL
S=C(NCCc1ccccc1)Nc1ccc(Br)cn1,,271 µM
Cc1cc(C#N)cc(C)c1Oc1nc(Nc2ccc(C#N)cc2)nc(N)c1Br,MTT,>4.595 µM
CCc1c(CC23CC4CC(CC(C4)C2)C3)nc(SCC(=O)Nc2ccc(C(C)=O)cc2Br)[nH]c1=O,MTT / absorbance,20.54 µM
O=c1cc(Sc2ccccc2)nc(Cl)[nH]1,,200 µM
Cc1cn([C@@H]2C[C@@H](N=[N+]=[N-])[C@H](COC(=O)NCCCCNC(=O)OC[C@H]3O[C@@H](n4cc(C)c(=O)[nH]c4=O)C[C@@H]3N=[N+]=[N-])O2)c(=O)[nH]c1=O,MTT,200 µM
Nc1ncnc2c1ncn2[C@@H]1CC(CO)(CO)CO1,,>100 µg/mL
CCN1c2ncccc2N(C)C(=S)c2oc3cccnc3c21,,>250 µM
CCC(C)Oc1cc(N)nc(Sc2ccccc2N)n1,,200 µM
CCc1c(CC23CC4CC(CC(C4)C2)C3)nc(SCC(=O)c2ccc(OC)cc2)[nH]c1=O,MTT / absorbance,17.19 µM
CCC(C)Oc1cc(=O)[nH]c(Sc2cccc(Cl)c2)n1,,≥300 µM
Cc1ccc(NC(=O)CN2CCC(Nc3nccc(Oc4c(C)cc(C#N)cc4C)n3)CC2)cc1C,MTT,1.506 µM
CCNC(=O)[C@@H](NC(=O)/C=C\c1ccccc1)[C@@H]1N[C@@H](C(=O)NCCNC(=O)[C@@H]2N[C@@H]([C@H](NC(=O)/C=C\c3ccccc3)C(=O)NCC)SC2(C)C)C(C)(C)S1,,>100 µM
N#Cc1cn([C@H]2C=C[C@@H](CO)O2)c2ncnc(N)c12,,44 µM
CCNC(=O)[C@@H](NC(=O)c1ccccc1-c1ccccc1)[C@@H]1N[C@@H](C(=O)NCCNC(=O)[C@@H]2N[C@@H]([C@H](NC(=O)c3ccccc3-c3ccccc3)C(=O)NCC)SC2(C)C)C(C)(C)S1,,>100 µM
c1ccc(CNCc2ccc(CN3CCCNCCNCCCNCC3)cc2)nc1,,>300 µM
Cc1cn([C@H]2C[C@H](N=[N+]=[N-])[C@@H](CO)O2)c(=O)[nH]c1=O,,8 µM
NC(=O)c1nn([C@H]2C[C@H](O)[C@@H](CO)O2)cc1I,,>300 µM
CN(C)c1ccc(CNC(=O)[C@@H](NC(=O)c2ccccc2-c2ccccc2)[C@@H]2N[C@@H](C(=O)NCCNC(=O)[C@@H]3N[C@@H]([C@H](NC(=O)c4ccccc4-c4ccccc4)C(=O)NCc4ccc(N(C)C)cc4)SC3(C)C)C(C)(C)S2)cc1,,>100 µM
Cc1ccc(C(=O)Nc2ccc(S(=O)(=O)O)c3cc(S(=O)(=O)O)cc(S(=O)(=O)O)c23)cc1NC(=O)c1cccc(NC(=O)Nc2cccc(C(=O)Nc3cc(C(=O)Nc4ccc(S(=O)(=O)O)c5cc(S(=O)(=O)O)cc(S(=O)(=O)O)c45)ccc3C)c2)c1,,>500 µM
Cc1cn([C@@H]2C=C[C@H](COC(=O)OC[C@H]3O[C@@H](n4cc(C)c(=O)[nH]c4=O)C[C@@H]3N=[N+]=[N-])O2)c(=O)[nH]c1=O,MTT,174 µM
CC(C)Nc1cccnc1N1CCN(C(=O)c2cc3cc(NS(C)(=O)=O)ccc3[nH]2)CC1,MTT,>43.8 µM
NC(=O)c1cn([C@H]2C=C[C@@H](CO)O2)c2ncnc(N)c12,,625 µM
CCN1c2cc(C)c(C)cc2N(C)S(=O)(=O)c2cccnc21,,>250 µM
N#Cc1cn([C@H]2CC[C@@H](CO)O2)c2ncnc(N)c12,,54 µM
CC(C)[C@H](NC(=O)N(C)Cc1ccccn1)C(=O)N[C@@H](Cc1ccccc1)[C@@H](O)[C@H](O)[C@H](Cc1ccccc1)NC(=O)[C@@H](NC(=O)N(C)Cc1ccccn1)C(C)C,,>100 µM
Cc1cn([C@H]2C[C@H](N=[N+]=[N-])[C@@H](COP(=O)(O)O)O2)c(=O)[nH]c1=O,trypan blue / absorbance,648 µM
C1CNCCNCCCN(CCCN2CCCNCCNCCCNCC2)CCNC1,,>300 µM
CC1(C)S[C@H]([C@H](NC(=O)Cc2ccccn2)C(=O)NCc2ccc(Cl)cc2Cl)N[C@H]1C(=O)NCCNC(=O)[C@@H]1N[C@@H]([C@H](NC(=O)Cc2ccccn2)C(=O)NCc2ccc(Cl)cc2Cl)SC1(C)C,,>100 µM
CS(=O)(=O)c1ccc(CN2CCC(N=C3C=C(Cc4ccc(Cl)cc4Cl)NS(=O)(=O)N3)CC2)cc1,MTT,224 µM
Cc1cn([C@H]2C=C[C@@H](CO)O2)c(=O)[nH]c1=O,,~25 µg/mL
c1cc(CN2CCCNCCNCCCNCC2)ccc1CN1CCCNCCNCCCNCC1,MTT,>5 µM
Cc1cn(C2CC(N=[N+]=[N-])C(COC(=O)c3cn4c5c(c(N6CCN(C)CC6)c(F)cc5c3=O)OC[C@@H]4C)O2)c(=O)[nH]c1=O,MTT,41.71 µM
CO[C@H]1CC[C@H](C)N2C[C@H]1n1cc(C(=O)NCc3c(F)cc(F)cc3F)c(=O)c(O)c1C2O,luminescence,34.8 µM
Cc1cn([C@@H]2C[C@@H](N=[N+]=[N-])[C@H](COC(=O)OC[C@H]3O[C@@H](n4cc(C)c(=O)[nH]c4=O)C[C@@H]3N=[N+]=[N-])O2)c(=O)[nH]c1=O,MTT,128.1 µM
O=S1(=O)NC(Cc2cccc3ccccc23)=CC(=NC2CCN(Cc3c(Cl)cccc3Cl)CC2)N1,MTT,54.73 µM
CCC(C)Oc1cc(N)nc(Sc2cccc(C)c2)n1,,121 µM
CCc1cc(NCc2nc3c(Cl)ccc(Cl)c3o2)c(=O)[nH]c1C,,59 µM
Cc1ccccc1NC(=O)CN1CCC(Nc2nccc(Oc3c(C)cc(C#N)cc3C)n2)CC1,MTT,1.254 µM
CC(=O)O[C@H]1C[C@@]2(C)[C@@H](C[C@@H](O)[C@H]3[C@@]4(C)CC[C@@H](O)[C@@H](C)[C@@H]4CC[C@@]32C)/C1=C(\CCC=C(C)C)C(=O)O,,>46 µM
CC1(C)S[C@H]([C@H](NC(=O)Cc2ccccc2)C(=O)NCC(=O)O)N[C@H]1C(=O)NCCNC(=O)[C@@H]1N[C@@H]([C@H](NC(=O)Cc2ccccc2)C(=O)NCC(=O)O)SC1(C)C,,>100 µM
Cc1cc(C#N)cc(C)c1Oc1ccnc(NC2CCN(CC(=O)Nc3cccc(Cl)c3)CC2)n1,MTT,1.263 µM
CCC(C)Oc1cc(=O)n(C)c(Sc2ccccc2)n1,,>200 µM
Nc1ncnc2c1ncn2[C@H]1CC[C@@H](CO)O1,trypan blue,213 µM
Nc1ncnc2c1ncn2[C@H]1CC[C@@H](CO)O1,,>500 µM
CCOCn1c(Cc2ccccc2)c(C(C)C)c(=O)[nH]c1=O,,98 µM
Cc1cn([C@@H]2C=C[C@H](COC(=O)NCCCCNC(=O)OC[C@@H]3C=C[C@H](n4cc(C)c(=O)[nH]c4=O)O3)O2)c(=O)[nH]c1=O,MTT,178.5 µM
COc1ccc(Br)cc1CCNC(=S)Nc1nccs1,,107 µM
COC(=O)c1nn(COCCO)cc1I,,>300 µM
C[C@H](CCC(=O)NCC(=O)O)[C@H]1CC[C@H]2[C@@H]3CC[C@@H]4C[C@H](OS(=O)(=O)O)CC[C@]4(C)[C@H]3CC[C@]12C,,240 µg/mL
Cc1cc(C#N)cc(C)c1Oc1ccnc(NC2CCN(CC(=O)Nc3ccccc3[N+](=O)[O-])CC2)n1,MTT,59.3 µM
Cc1cn(C2CC(N=[N+]=[N-])C(COC(=O)c3cn(C4CC4)c4cc(N5CCN(C(=O)OCc6ccccc6)CC5)c(F)cc4c3=O)O2)c(=O)[nH]c1=O,MTT,131 µM
CCC(C)Oc1cc(N)nc(Sc2cccc(Cl)c2)n1,,188 µM
O=c1ccn([C@@H]2CC(CO)(CO)CO2)c(=O)[nH]1,,>100 µg/mL
NC(=O)c1nn([C@H]2CC[C@@H](CO)O2)cc1I,,>300 µM
N#Cc1ccc(CN2CCC(N=C3C=C(Cc4ccc(Cl)cc4Cl)NS(=O)(=O)N3)CC2)cc1,MTT,101 µM
Cc1csc(NC(=S)NCCc2ccccc2)n1,,360 µM
Cc1ccnc2c1NC(=O)c1cccnc1N2C1CC1,MTT,>15.02 µM
CC(=O)c1ccc(NC(=O)CSc2nc(CC34CC5CC(CC(C5)C3)C4)c(C)c(=O)[nH]2)c(Br)c1,MTT / absorbance,23.73 µM
C[C@H](CCC(=O)NCCS(=O)(=O)O)[C@H]1CC[C@H]2[C@@H]3CC[C@@H]4C[C@H](O)CC[C@]4(C)C3CC[C@]12C,,370 µg/mL
Cc1ccnc2c1NC(=O)c1cccnc1N2C1CC1,MTT / absorbance,>15.02 µM
Fc1cccc(F)c1CCNC(=S)Nc1ccc(Cl)cn1,,305 µM
CCn1cc(C(=O)OCC2OC(n3cc(C)c(=O)[nH]c3=O)CC2N=[N+]=[N-])c(=O)c2cc(F)c(N3CCN(C(=O)OCc4ccccc4)C(C)C3)c(F)c21,MTT,45.04 µM

A second listing of 9 rows from above:

SMILES | method | result
Cc1cc(C#N)cc(C)c1Oc1ccnc(NC2CCN(CC(=O)Nc3cccc(Cl)c3)CC2)n1 | MTT | 1.263 µM
CC(C)[C@H](NC(=O)N(C)Cc1ccccn1)C(=O)N[C@@H](Cc1ccccc1)[C@@H](O)[C@H](O)[C@H](Cc1ccccc1)NC(=O)[C@@H](NC(=O)N(C)Cc1ccccn1)C(C)C |  | >100 µM
Cc1cn([C@H]2C[C@H](N=[N+]=[N-])[C@@H](CO)O2)c(=O)[nH]c1=O |  | 8 µM
O=S1(=O)NC(Cc2cccc3ccccc23)=CC(=NC2CCN(Cc3c(Cl)cccc3Cl)CC2)N1 | MTT | 54.73 µM
CC(=O)O[C@H]1C[C@@]2(C)[C@@H](C[C@@H](O)[C@H]3[C@@]4(C)CC[C@@H](O)[C@@H](C)[C@@H]4CC[C@@]32C)/C1=C(\CCC=C(C)C)C(=O)O |  | >46 µM
Cc1ccnc2c1NC(=O)c1cccnc1N2C1CC1 | MTT / absorbance | >15.02 µM
Nc1ncnc2c1ncn2[C@@H]1CC(CO)(CO)CO1 |  | >100 µg/mL
NC(=O)c1cn([C@H]2C=C[C@@H](CO)O2)c2ncnc(N)c12 |  | 625 µM
COc1ccc(Br)cc1CCNC(=S)Nc1nccs1 |  | 107 µM